In patent US10414808B2 (priority 2012, dated 2019) one finds IC50 data, which are given here for six compounds.

The chains behind the UniProt entries cited, without tags or fusion partners.
UniProt Q15858, whole entry W1161R, looked up: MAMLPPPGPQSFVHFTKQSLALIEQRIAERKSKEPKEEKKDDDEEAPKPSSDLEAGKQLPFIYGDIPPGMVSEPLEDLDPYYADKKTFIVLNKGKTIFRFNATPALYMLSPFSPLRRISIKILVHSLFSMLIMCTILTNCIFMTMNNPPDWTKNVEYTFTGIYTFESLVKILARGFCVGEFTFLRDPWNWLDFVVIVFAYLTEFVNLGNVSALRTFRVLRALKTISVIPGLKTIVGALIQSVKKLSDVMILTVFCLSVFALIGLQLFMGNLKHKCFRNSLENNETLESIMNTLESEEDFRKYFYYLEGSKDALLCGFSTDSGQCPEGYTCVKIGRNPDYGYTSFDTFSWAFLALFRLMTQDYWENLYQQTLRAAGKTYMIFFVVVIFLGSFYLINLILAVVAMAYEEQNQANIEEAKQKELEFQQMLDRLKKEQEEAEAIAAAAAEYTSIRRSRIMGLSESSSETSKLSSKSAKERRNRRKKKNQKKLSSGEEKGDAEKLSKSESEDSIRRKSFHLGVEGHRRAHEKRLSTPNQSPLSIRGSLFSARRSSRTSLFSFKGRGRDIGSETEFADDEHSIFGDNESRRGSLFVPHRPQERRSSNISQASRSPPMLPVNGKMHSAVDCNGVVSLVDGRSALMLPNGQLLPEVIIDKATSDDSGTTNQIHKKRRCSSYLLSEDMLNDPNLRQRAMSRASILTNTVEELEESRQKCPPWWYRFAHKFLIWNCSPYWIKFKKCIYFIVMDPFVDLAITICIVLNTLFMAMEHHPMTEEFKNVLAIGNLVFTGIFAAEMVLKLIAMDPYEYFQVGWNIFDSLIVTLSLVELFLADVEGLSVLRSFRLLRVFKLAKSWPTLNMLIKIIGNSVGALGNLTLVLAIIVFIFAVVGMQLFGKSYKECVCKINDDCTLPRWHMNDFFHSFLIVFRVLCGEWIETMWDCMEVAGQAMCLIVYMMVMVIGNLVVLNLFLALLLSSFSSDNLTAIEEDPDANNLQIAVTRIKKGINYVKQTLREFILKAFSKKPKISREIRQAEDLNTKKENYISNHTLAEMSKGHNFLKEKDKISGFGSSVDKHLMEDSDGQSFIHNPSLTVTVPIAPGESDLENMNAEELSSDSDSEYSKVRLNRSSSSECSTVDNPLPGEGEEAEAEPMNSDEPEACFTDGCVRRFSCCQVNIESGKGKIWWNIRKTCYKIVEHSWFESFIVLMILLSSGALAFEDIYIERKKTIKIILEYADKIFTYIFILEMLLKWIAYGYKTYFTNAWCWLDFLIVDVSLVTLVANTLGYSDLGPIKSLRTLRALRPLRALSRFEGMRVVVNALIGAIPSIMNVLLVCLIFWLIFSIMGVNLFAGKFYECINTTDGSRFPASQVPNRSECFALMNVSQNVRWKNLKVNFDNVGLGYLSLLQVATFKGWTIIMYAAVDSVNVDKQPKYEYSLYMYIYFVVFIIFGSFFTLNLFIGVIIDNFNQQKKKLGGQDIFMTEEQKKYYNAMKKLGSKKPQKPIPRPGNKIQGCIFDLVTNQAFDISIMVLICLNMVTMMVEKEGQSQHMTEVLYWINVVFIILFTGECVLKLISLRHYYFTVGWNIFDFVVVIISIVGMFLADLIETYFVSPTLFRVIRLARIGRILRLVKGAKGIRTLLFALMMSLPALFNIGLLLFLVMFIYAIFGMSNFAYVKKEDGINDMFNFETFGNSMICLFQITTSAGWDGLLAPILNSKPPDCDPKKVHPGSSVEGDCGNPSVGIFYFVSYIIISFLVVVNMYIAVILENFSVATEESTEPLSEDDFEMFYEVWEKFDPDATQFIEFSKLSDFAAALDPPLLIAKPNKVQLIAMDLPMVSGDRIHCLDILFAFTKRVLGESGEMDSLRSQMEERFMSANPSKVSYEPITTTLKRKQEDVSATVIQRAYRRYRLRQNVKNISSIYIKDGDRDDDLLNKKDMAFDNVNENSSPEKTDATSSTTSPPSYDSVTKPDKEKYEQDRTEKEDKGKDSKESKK
UniProt Q99250, whole entry, looked up: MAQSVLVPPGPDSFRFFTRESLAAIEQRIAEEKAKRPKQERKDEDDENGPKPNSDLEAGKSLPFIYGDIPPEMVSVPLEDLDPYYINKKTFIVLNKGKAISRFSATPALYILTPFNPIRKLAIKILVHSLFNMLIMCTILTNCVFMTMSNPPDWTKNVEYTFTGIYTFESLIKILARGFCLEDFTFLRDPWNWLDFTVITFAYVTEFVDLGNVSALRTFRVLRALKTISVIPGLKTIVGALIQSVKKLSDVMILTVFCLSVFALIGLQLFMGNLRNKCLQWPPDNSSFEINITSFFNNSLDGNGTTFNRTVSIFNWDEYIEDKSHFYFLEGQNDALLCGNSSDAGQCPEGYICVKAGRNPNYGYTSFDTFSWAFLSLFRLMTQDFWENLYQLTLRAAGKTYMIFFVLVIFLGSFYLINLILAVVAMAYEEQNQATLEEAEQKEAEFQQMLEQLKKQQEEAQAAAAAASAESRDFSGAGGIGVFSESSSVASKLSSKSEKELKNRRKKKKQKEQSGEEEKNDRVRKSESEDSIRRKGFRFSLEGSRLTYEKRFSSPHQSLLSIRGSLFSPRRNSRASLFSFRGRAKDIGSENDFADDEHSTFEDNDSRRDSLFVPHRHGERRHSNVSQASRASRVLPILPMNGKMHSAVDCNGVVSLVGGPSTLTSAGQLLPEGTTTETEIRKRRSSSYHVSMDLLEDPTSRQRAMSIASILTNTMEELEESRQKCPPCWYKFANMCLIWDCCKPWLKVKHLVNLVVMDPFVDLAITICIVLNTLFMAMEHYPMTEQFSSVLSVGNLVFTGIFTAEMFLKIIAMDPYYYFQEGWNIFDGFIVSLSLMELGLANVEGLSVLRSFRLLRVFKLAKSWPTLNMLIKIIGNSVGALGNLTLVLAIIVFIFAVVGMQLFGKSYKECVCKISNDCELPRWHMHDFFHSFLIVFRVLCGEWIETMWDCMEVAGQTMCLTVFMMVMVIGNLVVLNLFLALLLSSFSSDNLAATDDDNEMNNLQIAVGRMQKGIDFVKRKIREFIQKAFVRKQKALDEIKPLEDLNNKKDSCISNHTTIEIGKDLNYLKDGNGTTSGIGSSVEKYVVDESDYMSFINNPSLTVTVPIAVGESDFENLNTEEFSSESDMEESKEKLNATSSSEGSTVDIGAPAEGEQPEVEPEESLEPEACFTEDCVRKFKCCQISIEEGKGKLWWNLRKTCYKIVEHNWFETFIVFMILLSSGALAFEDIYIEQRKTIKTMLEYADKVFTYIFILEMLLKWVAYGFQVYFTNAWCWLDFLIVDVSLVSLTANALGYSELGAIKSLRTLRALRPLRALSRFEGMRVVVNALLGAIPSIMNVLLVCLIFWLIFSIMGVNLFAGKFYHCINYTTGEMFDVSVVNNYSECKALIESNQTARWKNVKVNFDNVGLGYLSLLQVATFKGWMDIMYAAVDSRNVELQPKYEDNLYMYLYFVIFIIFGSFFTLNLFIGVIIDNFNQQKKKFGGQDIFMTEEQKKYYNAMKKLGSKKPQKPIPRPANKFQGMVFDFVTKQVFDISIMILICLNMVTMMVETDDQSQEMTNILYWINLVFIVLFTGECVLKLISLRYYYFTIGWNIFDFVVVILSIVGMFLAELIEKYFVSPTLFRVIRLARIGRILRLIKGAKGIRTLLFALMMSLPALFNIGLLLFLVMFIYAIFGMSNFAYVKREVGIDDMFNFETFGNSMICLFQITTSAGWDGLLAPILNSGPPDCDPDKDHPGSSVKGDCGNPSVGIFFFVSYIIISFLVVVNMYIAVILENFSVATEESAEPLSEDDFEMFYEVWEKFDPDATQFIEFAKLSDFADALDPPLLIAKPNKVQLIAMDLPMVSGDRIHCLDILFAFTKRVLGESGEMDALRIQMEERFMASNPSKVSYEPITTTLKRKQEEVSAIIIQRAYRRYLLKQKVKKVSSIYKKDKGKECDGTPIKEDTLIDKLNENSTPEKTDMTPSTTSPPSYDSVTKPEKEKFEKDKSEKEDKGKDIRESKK

The target of one assay is Nav1.7 (Homo sapiens, UniProt Q15858, W1161R). Description: IC50 (Nav1.7) µM. As to conditions: read-out: IC50 (Nav1.7) µM.
The target in the next assay is Nav1.2 (Homo sapiens, UniProt Q99250). Put plainly: IC50 (Nav1.2) µM. The note with it: read-out: IC50 (Nav1.2) µM.

Consider `CC[C@H](C)[C@@H]1NC(=O)[C@H](C)NC(=O)[C@H](CC(C)C)NC(=O)[C@@H](NC(=O)[C@H](CCC(=O)O)NC(=O)[C@@H]2CCCN2C(=O)CN)CSSC[C@@H]2NC(=O)[C@@H]3CSSC[C@@H](C(=O)N[C@@H](CCCCN)C(=O)N[C@@H](Cc4ccc(O)cc4)C(=O)N[C@@H](CCC(N)=O)C(=O)N[C@H](C(=O)NCC(=O)N[C@@H](CCCCN)C(=O)O)[C@@H](C)CC)NC(=O)[C@H](Cc4c[nH]c5ccccc45)NC(=O)[C@H](CCCNC(=N)N)NC(=O)[C@H]([C@@H](C)O)NC(=O)[C@H](CCCCN)NC(=O)[C@H](CCCNC(=N)N)NC(=O)[C@H](CO)NC(=O)[C@H](CSSC[C@H](NC(=O)[C@H](C)NC(=O)[C@H](CCCCN)NC(=O)[C@H](Cc4ccccc4)NC1=O)C(=O)N[C@@H](CC(N)=O)C(=O)N1CCC[C@H]1C(=O)N[C@@H](CO)C(=O)N[C@@H](CC(N)=O)C(=O)N[C@@H](CC(=O)O)C(=O)N[C@@H](CCC(N)=O)C(=O)N3)NC(=O)[C@H](C(C)C)NC(=O)[C@H](CC(C)C)NC(=O)[C@H](CCCCN)NC(=O)[C@H](CO)NC(=O)[C@H](CO)NC(=O)[C@H](CCCCN)NC2=O`, for which the concentration for half-maximal inhibition (IC50) (in general, the concentration that gives 50% inhibition) turned out to be 0.02 µM at Nav1.7 and 0.03 µM at Nav1.2.

With `CC[C@H](C)[C@H](NC(=O)[C@H](CCC(N)=O)NC(=O)[C@H](Cc1ccc(O)cc1)NC(=O)[C@H](CCCCN)NC(=O)[C@@H]1CSSC[C@@H]2NC(=O)[C@H](CCC(N)=O)NC(=O)[C@H](CC(=O)O)NC(=O)[C@H](CC(N)=O)NC(=O)[C@H](CO)NC(=O)[C@@H]3CCCN3C(=O)[C@H](CC(N)=O)NC(=O)[C@@H]3CSSC[C@H](NC(=O)[C@H](C(C)C)NC(=O)[C@H](CC(C)C)NC(=O)[C@H](CCCCN)NC(=O)[C@H](CO)NC(=O)[C@H](CO)NC(=O)[C@H](CCCCN)NC(=O)[C@H](CSSC[C@H](NC(=O)[C@H](CCC(=O)O)NC(=O)[C@@H]4CCCN4C(=O)CN)C(=O)N[C@@H](CC(C)C)C(=O)N[C@@H](CCC(=O)O)C(=O)N[C@@H]([C@@H](C)CC)C(=O)N[C@@H](Cc4ccccc4)C(=O)N[C@@H](CCCCN)C(=O)N[C@@H](Cc4c[nH]c5ccccc45)C(=O)N3)NC2=O)C(=O)N[C@@H](CO)C(=O)N[C@@H](CCCNC(=N)N)C(=O)N[C@@H](CCCCN)C(=O)N[C@@H]([C@@H](C)O)C(=O)N[C@@H](CCCNC(=N)N)C(=O)N[C@@H](Cc2c[nH]c3ccccc23)C(=O)N1)C(=O)NCC(=O)N[C@@H](CCCCN)C(=O)O`, the IC50 on Nav1.7 came out at 0.05 µM; at Nav1.2, 0.01 µM.

For the compound `CC[C@H](C)[C@H](NC(=O)[C@H](CCC(N)=O)NC(=O)[C@H](Cc1ccc(O)cc1)NC(=O)[C@H](CCCCN)NC(=O)[C@@H]1CSSC[C@@H]2NC(=O)[C@H](C)NC(=O)[C@H](CC(=O)O)NC(=O)[C@H](CC(N)=O)NC(=O)[C@H](CO)NC(=O)[C@@H]3CCCN3C(=O)[C@H](CC(N)=O)NC(=O)[C@@H]3CSSC[C@H](NC(=O)[C@H](C(C)C)NC(=O)[C@H](CC(C)C)NC(=O)[C@H](CCCCN)NC(=O)[C@H](CO)NC(=O)[C@H](CO)NC(=O)[C@H](CCCCN)NC(=O)[C@H](CSSC[C@H](NC(=O)[C@H](CCC(=O)O)NC(=O)[C@@H]4CCCN4C(=O)CN)C(=O)N[C@@H](CC(C)C)C(=O)N[C@@H](CCC(=O)O)C(=O)N[C@@H]([C@@H](C)CC)C(=O)N[C@@H](Cc4ccccc4)C(=O)N[C@@H](CCCCN)C(=O)N[C@@H](C)C(=O)N3)NC2=O)C(=O)N[C@@H](CO)C(=O)N[C@@H](CCCNC(=N)N)C(=O)N[C@@H](CCCCN)C(=O)N[C@@H]([C@@H](C)O)C(=O)N[C@@H](CCCNC(=N)N)C(=O)N[C@@H](Cc2c[nH]c3ccccc23)C(=O)N1)C(=O)NCC(=O)N[C@@H](CCCCN)C(=O)O`, the figures for the IC50 at Nav1.7 and on Nav1.2 were 0.05 µM and 0.07 µM, respectively.

For `CC[C@H](C)[C@H](NC(=O)[C@H](CCC(N)=O)NC(=O)[C@H](Cc1ccc(O)cc1)NC(=O)[C@H](CCCCN)NC(=O)[C@@H]1CSSC[C@@H]2NC(=O)[C@H](CCC(N)=O)NC(=O)[C@H](CC(=O)O)NC(=O)[C@H](CC(N)=O)NC(=O)[C@H](CO)NC(=O)[C@@H]3CCCN3C(=O)[C@H](CC(N)=O)NC(=O)[C@@H]3CSSC[C@H](NC(=O)[C@H](C(C)C)NC(=O)[C@H](CC(C)C)NC(=O)[C@H](CCCCN)NC(=O)[C@H](CO)NC(=O)[C@H](CO)NC(=O)[C@H](CCCCN)NC(=O)[C@H](CSSC[C@H](NC(=O)[C@H](CCC(=O)O)NC(=O)[C@@H]4CCCN4C(=O)CN)C(=O)N[C@@H](CC(C)C)C(=O)N[C@@H](CCC(=O)O)C(=O)N[C@@H]([C@@H](C)CC)C(=O)N[C@@H](Cc4ccccc4)C(=O)N[C@@H](CCCCN)C(=O)N[C@@H](C)C(=O)N3)NC2=O)C(=O)N[C@@H](CO)C(=O)N[C@@H](CCCNC(=N)N)C(=O)N[C@@H](CCCCN)C(=O)N[C@@H]([C@@H](C)O)C(=O)N[C@@H](C)C(=O)N[C@@H](Cc2c[nH]c3ccccc23)C(=O)N1)C(=O)NCC(=O)N[C@@H](CCCCN)C(=O)O`, the values for the IC50 at Nav1.7 and at Nav1.2 were 0.05 µM and 0.2 µM, respectively.

Turning to `CC[C@H](C)[C@H](NC(=O)[C@H](CCC(N)=O)NC(=O)[C@H](Cc1ccc(O)cc1)NC(=O)[C@H](CCCCN)NC(=O)[C@@H]1CSSC[C@@H]2NC(=O)[C@H](CCC(N)=O)NC(=O)[C@H](CC(=O)O)NC(=O)[C@H](CC(N)=O)NC(=O)[C@H](CO)NC(=O)[C@@H]3CCCN3C(=O)[C@H](CC(N)=O)NC(=O)[C@@H]3CSSC[C@H](NC(=O)[C@H](C(C)C)NC(=O)[C@H](CC(C)C)NC(=O)[C@H](CCCCN)NC(=O)[C@H](CO)NC(=O)[C@H](CO)NC(=O)[C@H](CCCCN)NC(=O)[C@H](CSSC[C@H](NC(=O)[C@H](CCC(=O)O)NC(=O)[C@@H]4CCCN4C(=O)CN)C(=O)N[C@@H](CC(C)C)C(=O)N[C@@H](CCC(=O)O)C(=O)N[C@@H]([C@@H](C)CC)C(=O)N[C@@H](Cc4ccccc4)C(=O)N[C@@H](CCCCN)C(=O)N[C@@H](CCC(=O)O)C(=O)N3)NC2=O)C(=O)N[C@@H](CO)C(=O)N[C@@H](CCCNC(=N)N)C(=O)N[C@@H](CCCCN)C(=O)N[C@@H]([C@@H](C)O)C(=O)N[C@@H](CCCNC(=N)N)C(=O)N[C@@H](Cc2c[nH]c3ccccc23)C(=O)N1)C(=O)NCC(=O)N[C@@H](CCCCN)C(=O)O`, the results for the IC50 at Nav1.7 and at Nav1.2 were 0.04 µM and 0.02 µM, respectively.

With `CC[C@H](C)[C@@H]1NC(=O)[C@H](CCCNC(=N)N)NC(=O)[C@H](CC(C)C)NC(=O)[C@@H](NC(=O)[C@H](CCC(=O)O)NC(=O)[C@@H]2CCCN2C(=O)CN)CSSC[C@@H]2NC(=O)[C@@H]3CSSC[C@@H](C(=O)N[C@@H](CCCCN)C(=O)N[C@@H](Cc4ccc(O)cc4)C(=O)N[C@@H](CCC(N)=O)C(=O)N[C@H](C(=O)N[C@H](C(=O)N[C@@H](CCCCN)C(=O)O)[C@@H](C)CC)[C@@H](C)CC)NC(=O)[C@H](Cc4c[nH]c5ccccc45)NC(=O)[C@H](CCCNC(=N)N)NC(=O)[C@H]([C@@H](C)O)NC(=O)[C@H](CCCCN)NC(=O)[C@H](CCCNC(=N)N)NC(=O)[C@H](CO)NC(=O)[C@H](CSSC[C@H](NC(=O)[C@H](C)NC(=O)[C@H](CCCCN)NC(=O)[C@H](Cc4ccccc4)NC1=O)C(=O)N[C@@H](CC(N)=O)C(=O)N1CCC[C@H]1C(=O)N[C@@H](CO)C(=O)N[C@@H](CC(N)=O)C(=O)N[C@@H](CC(=O)O)C(=O)N[C@@H](CCC(N)=O)C(=O)N3)NC(=O)[C@H](C(C)C)NC(=O)[C@H](CC(C)C)NC(=O)[C@H](CCCCN)NC(=O)[C@H](CO)NC(=O)[C@H](CO)NC(=O)[C@H](CCCCN)NC2=O`, the IC50 worked out at 0.01 µM at Nav1.7 and 0.05 µM at Nav1.2.
